Experimental data from patent US20070054262A1, “Methods of identifying optimal variants of peptide epitopes” (priority 2003, published 2007).

Test system: Env 134-specific T cell line
Experiment: Env 134-specific T cell line (stimulated five times with the immunizing peptide): recognition and titration of variant peptides
Assay type: cell-based, mouse
Conditions: Env 134 line; IFN-γ
From the text: Recognition after multiple restimulations The observed recognition of variant peptides by CTL raised against the parent peptide might be due to either promiscuous recognition at the level of a single TCR or simply a mixture of TCRs against the immunizing peptide which are each able to recognize subtly different peptides. To distinguish between these two possibilities, Env 134- or Gag 386-specific T cell lines were generated by stimulating five times with the immunizing peptide, and then tested for recognition of a partial panel of variant peptides. These T cell lines were also characterized for Vβ TCR usage against a panel of antibodies predicted to react with the TCR of the mouse strains utilized for these experiments.
Because the SU is a measure of the number of cells needed to secrete a defined amount of IFN-γ, a higher SU value would correspond to an enrichment of IFN-γ, producing cells.
Both lines were also characterized with regard to the affinity of certain of the variant peptides by titrating the variant peptides examined above (Table 5A and 5B).

With KLTPLCVTL [Env 134] the “Peptide affinity for the TCR (titration against CTL stimulated 5 times with the parent peptide)” value was “highest affinity”.
